Compound potency records, mixed from different reports. Data source: NIAID ChemDB in PubChem.

All rows: cytotoxicity tests; cell line: Huh7; measure: CC50

CCn is the concentration with n% toxicity to the cells. Two numbers with a dash give a range or band. Conditions beyond the fields shown may differ between rows. An empty or dashed field is not shown.

compound,read by,result
O=C(NCc1ccccc1)c1nc2ccccc2c(=O)n1O,MTT,>250 µM
CCOC(=O)c1c(CSc2ccccc2)n(C)c2cc(C#N)c(O)c(CN(N3CCC(CO)CC3)N3CCC(CO)CC3)c12,ATP,>100 µM
CC1CCC(C(=O)N(c2cc(C#CC(C)(C)C)sc2C(=O)O)N(C)C2CCN(C)CC2)CC1,-,>44 µM
CCc1nc(N)nc2ccc(-c3ccc(N)cc3)nc12,-,<10 µM
C=C1C(=O)O[C@@H]2[C@H]1CC[C@H](COC(=O)/C(C)=C/C)[C@]1(O)CCC(=O)[C@@]21C,-,>2 µM
N#Cc1c(Nc2ccc(Cl)cc2Cl)s[nH]c1=O,-,>50 µM
CC(C)Cc1nc(N)nc2ccc(-c3ccc(F)cc3)nc12,-,>20 µM
Cc1nc(N(C)C)nc(N[C@@H]2C[C@H](CO)[C@@H](O)[C@H]2O)c1-c1nc2ccccc2s1,MTS,>25 µM
C=C1C(=O)O[C@@H]2[C@H]1CC[C@H](COC(=O)/C(C)=C\C)[C@]1(O)CCC(=O)[C@@]21C,-,>2 µM
Nc1nc(C2CC2)c2nc(-c3ccc(F)cc3)ccc2n1,-,10–20 µM
Cc1cc(F)ccc1-c1cnc2nc(N)nc(N3CCOCC3)c2n1,-,>20 µM
N/C(=N\OC(=O)N1CCOCC1)c1ccc(O)cc1,MTS,87.8 µM
COc1ccc(-c2cnc3nc(N)nc(N4CCN(C(=O)c5cccs5)CC4)c3n2)cc1OC,ATP,10–20 µM
CCCc1nc(N)nc2ccc(-c3ccc(F)cc3)nc12,-,>20 µM
Nc1nc(=O)n2c3c1nnn3C[C@H]1OC2[C@H](O)[C@@H]1O,-,11 µM
COc1ccc(/C(N)=N/OC(=O)N2CCOCC2)cc1OC,MTS,100 µM
Nc1ccn([C@@H]2O[C@H](CO)[C@@H](O)[C@H]2F)c(=O)n1,-,>100 µM
Cc1cccc(/C(N)=N/OC(=O)N2CCOCC2)c1,MTS,47 µM
c1ccsc1,-,>100 µM
O=C(NCCc1ccccc1)c1nc2ccccc2c(=O)n1O,MTT,>250 µM
C[C@@]1(O)[C@H](O)[C@@H](CO)O[C@H]1n1ccc(=O)[nH]c1=O,-,>1000 µM
CCOC(=O)C1(NP(=O)(OC[C@H]2O[C@@H](c3cnc4c(=O)[nH]c(N)nn34)[C@](C)(O)[C@@H]2O)Oc2cccc3ccccc23)CCC1,MTT,>100 µM
Nc1ncnc2c1c(I)nn2[C@@H]1C=C(CO)[C@@H](O)[C@H]1O,tetrazolium,43.6 µM
CCCN1N=C(N)c2cn(C3(C)O[C@H](CO)[C@@H](O)[C@H]3O)c3ncnc1c23,-,>300 µM
CCc1nc(N(C)C)nc(N[C@@H]2C[C@H](CO)[C@@H](O)[C@H]2O)c1-c1nc2ccccc2s1,MTS,16 µM
N#Cc1c(Nc2cc(Cl)c(Cl)c(Cl)c2)s[nH]c1=O,-,<50 µM
N#Cc1cccc(S(=O)(=O)N(Cc2c(Cl)cccc2Cl)c2cccc(C(=O)NC3CCC3)c2)c1,absorbance,26 µM
O=C(NCc1ccc(Cl)cc1)c1nc2ccccc2c(=O)n1O,MTT,215.7 µM
CCOC(=O)c1c(CSc2ccccn2)n(C)c2cc(Br)c3c(c12)CN(C)CO3,ATP,15.2 µM
N#Cc1c(NCC2CC2)s[nH]c1=O,-,>50 µM
N/C(=N\OC(=O)N1CCOCC1)c1ccc(I)cc1,MTS,38.6 µM
CCOC(=O)c1c(COc2ccccc2)n(C)c2cc(Br)c(O)c(CN(N3CCC(CO)CC3)N3CCC(CO)CC3)c12,ATP,77.4 µM
CCOCCN1CCN(c2nc(N)nc3ncc(-c4ccc(OC)c(OC)c4)nc23)CC1,ATP,>20 µM
CCCC(NC(=O)[C@@H]1C[C@@H](OC(=O)N2CCc3ccccc3C2)CN1C(=O)[C@H](NC(=O)[C@H](NC(=O)c1cnccn1)C(C)C)C(C)C)C(=O)C(=O)NCCc1ccccc1,-,20 µM
N#Cc1c(NCC2CCCO2)s[nH]c1=O,-,>50 µM
CCN(C(=O)c1ccc(C)cc1)c1cc(-c2ccccc2)sc1C(=O)O,-,200 µM
C[C@@H]1[C@H](n2ccc(N)nc2=O)O[C@@](CO)(N=[N+]=[N-])[C@H]1O,MTS,>100 µM
CCOC(=O)c1c(CS(=O)(=O)c2ccccc2)n(C)c2cc(-c3cccnc3)c(O)c(CN(C)C)c12,ATP,34 µM
CCC[C@H](NC(=O)[C@@H]1[C@H]2CCC[C@H]2CN1C(=O)[C@@H](NC(=O)[C@@H](NC(=O)c1cnccn1)C1CCCCC1)C(C)(C)C)C(=O)C(=O)NC1CC1,MTT,37 µM
COc1ccc(-c2cnc3nc(N)nc(N4CCN(C(=O)Nc5cccs5)CC4)c3n2)cc1OC,ATP,<10 µM
C=C1[C@@H](n2cnc3c(N)ncnc32)[C@H](F)[C@H](O)[C@H]1CO,MTT,>300 µM
O=c1[nH]c(=O)n2c3c1nnn3CC1OC2[C@H](O)[C@@H]1O,-,24.4 µM
Cc1ccc(Sc2ccc(O)cc2)c(Nc2ncnc3nc(CC(C)C)ccc23)c1,MTT,11.2 µM
Nc1ccn([C@@H]2CS[C@H](CO)O2)c(=O)n1,MTT,>300 µM
O=C(NCc1ccc(F)cc1)c1nc2ccccc2c(=O)n1O,MTT,194.1 µM
COc1ccc([C@H]2Oc3ccc([C@H]4Oc5cc(O)cc(O)c5C(=O)[C@@H]4O)cc3O[C@@H]2CO)cc1O,absorbance,>100 µM
CC1=CN(c2ccc([N+](=O)[O-])cc2)[C@@H](c2ccc(Cl)cc2)[C@@H](C)C1=O,MTT,>50 µM
COc1ccc(-c2cnc3nc(N)nc(N4CCN(C(=O)N5CCCC5)CC4)c3n2)cc1OC,ATP,10–20 µM
C[C@@]1(O)[C@H](O)[C@@H](CO)O[C@H]1c1cnc2c(=O)[nH]c(N)nn12,MTT,>100 µM
Cc1ccc(Sc2ccc(O)cc2)c(Nc2ncnc3nc(C4CC4)ccc23)c1,MTT,17.4 µM
CCOC(=O)c1c(CSc2ccccc2)n(C)c2cc(C#N)c(O)c(CN(N3CCN(CCOCCO)CC3)N3CCN(CCOCCO)CC3)c12,ATP,51.1 µM
Nc1nc(N2CCOCC2)c2nc(-c3ccccc3Cl)cnc2n1,-,<10 µM
Cc1nc(N)nc2ccc(-c3ccc(F)cc3)nc12,-,<10 µM
CCCCN1N=C(N)c2cn(C3(C)O[C@H](CO)[C@@H](O)[C@H]3O)c3ncnc1c23,-,>300 µM
Nc1nc(Cl)nc2c1ncn2[C@H]1O[C@H](CO)[C@@H](F)[C@@H]1F,-,>10 µM
Nc1nc(N2CCOCC2)c2nc(-c3ccc(OC(F)(F)F)cc3)cnc2n1,-,10–20 µM
CC(C)(C)CC[C@@]1(C)C(=O)C(C2=NS(=O)(=O)c3cc(NS(C)(=O)=O)ccc3N2)=C(O)c2ccccc21,MTT,21.7 µM
Cc1cc(I)ccc1Nc1s[nH]c(=O)c1C#N,-,>50 µM
O=c1[nH]c(=S)c2nnn3c2n1C1O[C@H](C3)[C@@H](O)[C@H]1O,-,32 µM
Nc1ncnc2c1c(Br)nn2[C@@H]1C=C(CO)[C@@H](O)[C@H]1O,tetrazolium,80.7 µM
O=C(NCc1ccc([N+](=O)[O-])cc1)c1nc2ccccc2c(=O)n1O,MTT,>250 µM
Cc1ccccc1COC(=O)[C@@H](NP(=O)(OC[C@H]1O[C@@H](n2cnc3c(=O)[nH]c(N)nc32)[C@](C)(O)[C@@H]1O)Oc1cccc2ccccc12)C(C)C,ATP,100 µM
CC(C)[C@H](NP(=O)(OC[C@H]1O[C@@H](c2cnc3c(=O)[nH]c(N)nn23)[C@](C)(O)[C@@H]1O)Oc1cccc2ccccc12)C(=O)OCc1ccccc1,MTT,>100 µM
C=CCCc1nc(N)nc2ccc(-c3ccc(F)cc3)nc12,-,>20 µM
O=C(Cn1nnc2cc3cccnc3c(Cl)c21)Cn1nnc2cc3cccnc3c(Cl)c21,MTT,>100 µM
N/C(=N\OC(=O)N1CCOCC1)c1ccccc1,MTS,>100 µM
CCC[C@H](NC(=O)[C@@H]1[C@H]2CCC[C@H]2CN1C(=O)[C@@H](NC(=O)[C@@H](NC(=O)c1cnccn1)C1CCCCC1)C(C)(C)C)C(=O)C(=O)NC1CC1,-,>100 µM
Nc1ncnc2c1ncn2[C@H]1O[C@H](CO)[C@@H](F)[C@@H]1F,-,>10 µM
Cc1nc(N)c2ncn([C@H]3O[C@@H](CO)[C@H](O)[C@@H]3O)c2n1,MTT,>100 µM
COc1cc(C2C3CO[C@]4(O)C[C@H]2C=C([C@H]2Oc5cc(O)cc(O)c5C(=O)[C@@H]2O)[C@H]34)ccc1O,absorbance,>250 µM
N#Cc1c(NC2CCc3ccccc32)s[nH]c1=O,-,<50 µM
CN(C)c1nc(=O)n2c3c1nnn3C[C@H]1OC2[C@H](O)[C@@H]1O,-,>100 µM
N/C(=N\OC(=O)N1CCOCC1)c1ccc(Cl)cc1,MTS,51 µM
O=C(NCc1cccc(Cl)c1)c1nc2ccccc2c(=O)n1O,MTT,>250 µM
Nc1nc(N2CCOCC2)c2nc(-c3ccn[nH]3)cnc2n1,-,>20 µM
Cc1ccc(Sc2ccc(O)cc2)c(Nc2ncnc3nc(N(C)C)ncc23)c1,MTT,>50 µM
OCc1nc(-c2cnc(N3CCC(Oc4ccccc4C(F)(F)F)CC3)s2)no1,MTT,>5 µM

For reference, 5 entries again:

compound | read by | result
CC(C)Cc1nc(N)nc2ccc(-c3ccc(F)cc3)nc12 | - | >20 µM
O=C(NCc1ccc(F)cc1)c1nc2ccccc2c(=O)n1O | MTT | 194.1 µM
C[C@@]1(O)[C@H](O)[C@@H](CO)O[C@H]1c1cnc2c(=O)[nH]c(N)nn12 | MTT | >100 µM
CCOC(=O)c1c(COc2ccccc2)n(C)c2cc(Br)c(O)c(CN(N3CCC(CO)CC3)N3CCC(CO)CC3)c12 | ATP | 77.4 µM
CCOC(=O)c1c(CSc2ccccc2)n(C)c2cc(C#N)c(O)c(CN(N3CCN(CCOCCO)CC3)N3CCN(CCOCCO)CC3)c12 | ATP | 51.1 µM